PSTVd loop 15 mutant pool in Nicotiana benthamiana

The measurements come from Wu et al. 2024 (doi:10.1371/journal.ppat.1012142).

The pool varies loop 15 of the PSTVd intermediate strain in the pattern GGAAACCGNNNNNNC; wild type is GGAAACCGCUACUAC (upper and lower strand joined, each 5' to 3', the first 7 letters being the upper strand, closing pairs included).

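Three N. benthamiana plants were inoculated with the whole mutant pool. Samples came from the inoculated region at 5 days, the leaf margin at 10 and upper systemic leaves at 12.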

Values are reads per thousand in the sample; higher means more abundant, 0 means not found.
Each site shows the three plants.
"Pool" is the share in the plasmid pool used as inoculum, on the same scale.
The inoculated region was read from the minus strand, the other sites from the plus strand.
Sequences that differ at fixed positions probably stem from PCR or sequencing errors, and defective variants can be carried along by functional ones.

| sequence | pool | inoculated region | leaf margin | systemic leaves |
|---|---|---|---|---|
| GGAAACCGUUGUCUC | 0.192 | 0.147 / 0.0964 / 0.0952 | 0 / 0 / 0 | 0 / 0 / 0 |
| GGAAACCGUUGUGAC | 0.176 | 0.0655 / 0.129 / 0.114 | 0 / 0.0223 / 0.0200 | 0 / 0 / 0 |
| GGAAACCGUUGUGCC | 0.272 | 0.0819 / 0.0643 / 0 | 0 / 0 / 0.0401 | 0 / 0 / 0 |
| GGAAACCGUUGUGGC | 0.192 | 0.0491 / 0.112 / 0.0952 | 0 / 0 / 0 | 0 / 0 / 0 |
| GGAAACCGUUGUGUC | 0.352 | 0.0819 / 0.0964 / 0.0381 | 0.0323 / 0 / 0 | 0 / 0 / 0 |
| GGAAACCGUUGUUAC | 0.224 | 0.262 / 0.321 / 0.343 | 0.0647 / 0.0891 / 0.0801 | 0.0161 / 0.0605 / 0.182 |
| GGAAACCGUUGUUCC | 0.176 | 0.0164 / 0.0803 / 0.0952 | 0 / 0.0223 / 0.0401 | 0 / 0 / 0 |
| GGAAACCGUUGUUGC | 0.160 | 0.131 / 0.0803 / 0.0381 | 0 / 0 / 0 | 0 / 0 / 0 |
| GGAAACCGUUGUUUC | 0.144 | 0.442 / 0.289 / 0.571 | 0.162 / 0.134 / 0.140 | 0.0161 / 0 / 0 |
| GGAAACCGUUUAAAC | 0.224 | 0.0655 / 0.0321 / 0.0381 | 0 / 0 / 0.0401 | 0 / 0 / 0 |
| GGAAACCGUUUAACC | 0.192 | 0.0655 / 0.0643 / 0.152 | 0.0323 / 0 / 0 | 0 / 0 / 0 |
| GGAAACCGUUUAAGC | 0.384 | 0.0819 / 0.145 / 0.0381 | 0.0323 / 0.0223 / 0.0200 | 0 / 0 / 0 |
| GGAAACCGUUUAAUC | 0.288 | 0.0819 / 0.0964 / 0.0571 | 0 / 0.0223 / 0.0601 | 0 / 0 / 0 |
| GGAAACCGUUUACAC | 0.336 | 0.115 / 0.0964 / 0.0952 | 0.0162 / 0 / 0 | 0.0161 / 0 / 0 |
| GGAAACCGUUUACCC | 0.368 | 0.0655 / 0.0643 / 0.0952 | 0.0162 / 0 / 0.0601 | 0.0161 / 0 / 0 |
| GGAAACCGUUUACGC | 0.336 | 0.197 / 0.193 / 0.114 | 0.0323 / 0 / 0 | 0.0161 / 0 / 0 |
| GGAAACCGUUUACUC | 0.272 | 0.115 / 0.0482 / 0.0762 | 0 / 0.0223 / 0.0200 | 0.0161 / 0 / 0 |
| GGAAACCGUUUAGAC | 0.256 | 0.0655 / 0.129 / 0.0952 | 0.0162 / 0.0223 / 0.0601 | 0 / 0 / 0 |
| GGAAACCGUUUAGCC | 0.192 | 0.0983 / 0.161 / 0.0762 | 0 / 0 / 0.0401 | 0 / 0 / 0 |
| GGAAACCGUUUAGGC | 0.208 | 0.0983 / 0.0803 / 0.0571 | 0 / 0 / 0 | 0 / 0 / 0 |
| GGAAACCGUUUAGUC | 0.208 | 0.115 / 0.0803 / 0.0190 | 0 / 0 / 0 | 0.0161 / 0 / 0 |
| GGAAACCGUUUAUAC | 0.208 | 0.328 / 0.209 / 0.400 | 0.0485 / 0.111 / 0.100 | 0.0644 / 0.0303 / 0.137 |
| GGAAACCGUUUAUCC | 0.128 | 0.0819 / 0.0964 / 0.0762 | 0 / 0.0223 / 0.0200 | 0 / 0 / 0 |
| GGAAACCGUUUAUGC | 0.240 | 0.0819 / 0.0643 / 0.0381 | 0.0162 / 0 / 0.0401 | 0 / 0 / 0 |
| GGAAACCGUUUAUUC | 0.208 | 0.377 / 0.546 / 0.457 | 0.129 / 0.178 / 0.0601 | 0.0483 / 0 / 0 |
| GGAAACCGUUUCAAC | 0.240 | 0.0491 / 0.0964 / 0.209 | 0 / 0 / 0 | 0 / 0 / 0 |
| GGAAACCGUUUCACC | 0.288 | 0.115 / 0.112 / 0.114 | 0.0162 / 0 / 0 | 0.0161 / 0 / 0 |
| GGAAACCGUUUCAGC | 0.224 | 0.0983 / 0.0803 / 0.114 | 0.0162 / 0 / 0 | 0 / 0 / 0 |
| GGAAACCGUUUCAUC | 0.208 | 0.0655 / 0.145 / 0.0190 | 0.0162 / 0 / 0 | 0 / 0 / 0 |
| GGAAACCGUUUCCAC | 0.192 | 0.0491 / 0.0964 / 0.0381 | 0 / 0 / 0.0200 | 0.0161 / 0 / 0 |
| GGAAACCGUUUCCCC | 0.144 | 0.0655 / 0.0803 / 0.0381 | 0 / 0 / 0 | 0 / 0 / 0 |
| GGAAACCGUUUCCGC | 0.368 | 0.164 / 0.0964 / 0.0762 | 0.0162 / 0 / 0.0401 | 0 / 0 / 0.0228 |
| GGAAACCGUUUCCUC | 0.288 | 0.0819 / 0.0482 / 0.114 | 0.0162 / 0.0223 / 0 | 0 / 0 / 0 |
| GGAAACCGUUUCGAC | 0.192 | 0.0491 / 0.0803 / 0.114 | 0 / 0 / 0 | 0 / 0 / 0 |
| GGAAACCGUUUCGCC | 0.304 | 0.0491 / 0.0803 / 0.0571 | 0 / 0.0223 / 0.0200 | 0 / 0 / 0 |
| GGAAACCGUUUCGGC | 0.272 | 0.0983 / 0.0482 / 0.0762 | 0 / 0 / 0.0200 | 0 / 0 / 0 |
| GGAAACCGUUUCGUC | 0.288 | 0.147 / 0.145 / 0.114 | 0 / 0 / 0 | 0.0161 / 0 / 0 |
| GGAAACCGUUUCUAC | 0.224 | 0.344 / 0.209 / 0.362 | 0.0970 / 0.0668 / 0.200 | 0.0161 / 0 / 0.0684 |
| GGAAACCGUUUCUCC | 0.288 | 0.115 / 0.0482 / 0.0571 | 0.0162 / 0.0223 / 0.0200 | 0 / 0 / 0 |
| GGAAACCGUUUCUGC | 0.256 | 0.0655 / 0.0803 / 0.0952 | 0.0162 / 0 / 0.0200 | 0 / 0 / 0 |

2 of these entries, quoted again:

| sequence | pool | inoculated region | leaf margin | systemic leaves |
|---|---|---|---|---|
| GGAAACCGUUUAGAC | 0.256 | 0.0655 / 0.129 / 0.0952 | 0.0162 / 0.0223 / 0.0601 | 0 / 0 / 0 |
| GGAAACCGUUUACGC | 0.336 | 0.197 / 0.193 / 0.114 | 0.0323 / 0 / 0 | 0.0161 / 0 / 0 |

Samples held 43,870 to 66,106 reads, so the smallest values rest on one or two reads.
For reference, wild type rose from 33.9 per thousand in the pool to 202, 200, 159 (inoculated region), 724, 746, 710 (leaf margin) and 856, 883, 880 (systemic leaves).